Measurements reported in PubChem BioAssay AID624099 (ICCB-Longwood, 2012).
This is one part, drawn at random, of about 21,000 deposited reagents. Over the whole deposit, 497 (2.4%) got an active call. 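Higher z means weaker E2 silencing; only reporter increases were scored, and knock-downs that hurt cell survival may mask genuine repressor factors.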

- Purpose: 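Human genes that papillomavirus E2 requires to repress the HPV18 LCR promoter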 (primary screen)
- Cell system: human C33A cervical carcinoma cells (HPV-negative) stably expressing BPV1 E2 and an HPV18 LCR luciferase reporter
- Reagent: siRNA pool against human genes, 40 nM
- Timing: 72 h
- Measurement: 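Per-well luciferase luminescence, z-scored on each plate against the plate mean and SD with control wells left out, then averaged across three replicate plates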
- Reading the numbers: mean z-score and z-score: higher = stronger reporter signal, weaker E2 silencing
- Active means: 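Mean z ≥ 2 together with z ≥ 2 in two or more of the three replicates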

VTI1BP2 | mean z-score = 1.17; z-score, replicate A = 0.8; z-score, replicate B = 1.8; z-score, replicate C = 0.93; call = inactive
ZNF777 (zinc finger protein 777) | mean z-score = -0.2; z-score, replicate A = -0.21; z-score, replicate B = -0.11; z-score, replicate C = -0.27; call = inactive
B3GNT9 | mean z-score = -0.36; z-score, replicate A = -0.3; z-score, replicate B = -0.26; z-score, replicate C = -0.53; call = inactive
RPUSD1 (RNA pseudouridine synthase domain containing 1) | mean z-score = -1.18; z-score, replicate A = -1.29; z-score, replicate B = -1.29; z-score, replicate C = -0.98; call = inactive
ZNFX1 (zinc finger NFX1-type containing 1) | mean z-score = -1.15; z-score, replicate A = -1.15; z-score, replicate B = -1.28; z-score, replicate C = -1.04; call = inactive
ESPN (espin) | mean z-score = -1.14; z-score, replicate A = -1.46; z-score, replicate B = -0.92; z-score, replicate C = -1.05; call = inactive
COX6A1P2 (COX6A1 pseudogene 2) | mean z-score = -0.1; z-score, replicate A = -0.19; z-score, replicate B = 0.06; z-score, replicate C = -0.18; call = inactive
LOC256483 (retired record) | mean z-score = 1.05; z-score, replicate A = 1.25; z-score, replicate B = 0.99; z-score, replicate C = 0.92; call = inactive
TMEM266 (transmembrane protein 266) | mean z-score = -0.08; z-score, replicate A = -0.14; z-score, replicate B = 0.2; z-score, replicate C = -0.3; call = inactive

Limited to “z-score, replicate C” (2 entries from above):
ZNFX1 (zinc finger NFX1-type containing 1) = -1.04
ESPN (espin) = -1.05

The results go on.
WDR5 (WD repeat domain 5) | mean z-score = -1.02; z-score, replicate A = -0.74; z-score, replicate B = -0.97; z-score, replicate C = -1.34; call = inactive
HAUS8 (HAUS augmin like complex subunit 8) | mean z-score = -0.13; z-score, replicate A = -0.1; z-score, replicate B = -0.21; z-score, replicate C = -0.08; call = inactive
TEKT4 (tektin 4) | mean z-score = -1.21; z-score, replicate A = -1.16; z-score, replicate B = -1.12; z-score, replicate C = -1.35; call = inactive
OLIG3 (oligodendrocyte transcription factor 3) | mean z-score = -1.62; z-score, replicate A = -1.49; z-score, replicate B = -1.59; z-score, replicate C = -1.79; call = inactive
FRYL (FRY like transcription coactivator) | mean z-score = -0.77; z-score, replicate A = -0.85; z-score, replicate B = -0.84; z-score, replicate C = -0.64; call = inactive
SMCO4 (single-pass membrane protein with coiled-coil domains 4) | mean z-score = -0.37; z-score, replicate A = -0.34; z-score, replicate B = -0.47; z-score, replicate C = -0.29; call = inactive
RIT1 (Ras like without CAAX 1) | mean z-score = -1.2; z-score, replicate A = -1.23; z-score, replicate B = -1.26; z-score, replicate C = -1.12; call = inactive
ARL14 (ARF like GTPase 14) | mean z-score = -4.88; z-score, replicate A = -5.05; z-score, replicate B = -4.86; z-score, replicate C = -4.73; call = inactive
LINC00879 (long independently transcribed non-coding RNA 879) | mean z-score = 0.33; z-score, replicate A = 0.29; z-score, replicate B = 0.07; z-score, replicate C = 0.62; call = inactive
NOXO1 (NADPH oxidase organizer 1) | mean z-score = -0.75; z-score, replicate A = -0.8; z-score, replicate B = -0.74; z-score, replicate C = -0.69; call = inactive
FAM13B (family with sequence similarity 13 member B) | mean z-score = -0.61; z-score, replicate A = -0.03; z-score, replicate B = -0.89; z-score, replicate C = -0.92; call = inactive
ZNF496 (zinc finger protein 496) | mean z-score = -1.56; z-score, replicate A = -1.81; z-score, replicate B = -1.61; z-score, replicate C = -1.27; call = inactive
STMN2 (stathmin 2) | mean z-score = -0.2; z-score, replicate A = 0.04; z-score, replicate B = -0.34; z-score, replicate C = -0.31; call = inactive
PMS2 (PMS1 homolog 2, mismatch repair system component) | mean z-score = 0.7; z-score, replicate A = 0.71; z-score, replicate B = 0.97; z-score, replicate C = 0.42; call = inactive
CALR3 (calreticulin 3) | mean z-score = 1.64; z-score, replicate A = 1.72; z-score, replicate B = 1.76; z-score, replicate C = 1.43; call = inactive
PHETA1 (PH domain containing endocytic trafficking adaptor 1) | mean z-score = -0.51; z-score, replicate A = -0.35; z-score, replicate B = -0.85; z-score, replicate C = -0.34; call = inactive
RAB35 (RAB35, member RAS oncogene family) | mean z-score = 0.95; z-score, replicate A = 0.98; z-score, replicate B = 0.82; z-score, replicate C = 1.05; call = inactive
NR2E1 (nuclear receptor subfamily 2 group E member 1) | mean z-score = 0.57; z-score, replicate A = 0.87; z-score, replicate B = 0.51; z-score, replicate C = 0.33; call = inactive
